In US20190298669A1 (priority 2018, published 2019) one finds reduction of virus data, which are given here for one compound.

The subject of the assay is A/Mississippi/3/2001 H275Y mutant (H1N1). The assay is described as follows: Plaque assay of virus titer in infected A549 cells, oseltamivir-resistant strain. Format: cell-based, influenza A virus. The note with it: MOI=0.005, 24 h, 1 μM Tamiflu.

Compound `O=C(NOCC1CC1)c1ccc(F)c(F)c1Nc1ccc(I)cc1Cl` had a reduction of virus of 99.9%.
